Source: article PMC5118987 (Antimicrobial Agents and Chemotherapy, 2016)
“And” between values parts separate entries of the source, which are not always exact repeats. Equal values may be shown once.

Tested on: HIV-1 IIIb
Details: MT-4 cells, high-density dose response

Compound | Hill slope
O=C(NCc1c(F)cc(F)cc1F)c1cn2c(c(O)c1=O)C(=O)N1[C@H]3CC[C@H](C3)O[C@@H]1C2 [BIC, Bictegravir] | ~2.1 and 2.1 ± 0.3
C[C@@H]1CCO[C@H]2Cn3cc(C(=O)NCc4ccc(F)cc4F)c(=O)c(O)c3C(=O)N12 [DTG, Dolutegravir] | 2.0 ± 0.3
